The test system of test [1] is Fusarium graminearum. The experiment in a line: Fungicidal activity against Fusarium graminearum ZJ80 harboring mutation at codon 198 of beta2 tubulin assessed as mycelial growth inhibition after 3 days.
Test [2] deals with Fusarium graminearum. Kind of test: Fungicidal activity against Fusarium graminearum J2 harboring mutation at codon 198 of beta2 tubulin assessed as mycelial growth inhibition after 3 days.
The subject of test [3] is Fusarium graminearum. The experiment in a line: Fungicidal activity against Fusarium graminearum E198Q harboring mutation at codon 198 of beta2 tubulin assessed as mycelial growth inhibition after 3 days.
Test [4] has as its system Fusarium graminearum. Kind of test: Fungicidal activity against Fusarium graminearum 2052 harboring mutation at codon 167 of beta2 tubulin assessed as mycelial growth inhibition after 3 days.
For test [5], the system named is Fusarium graminearum. The experiment in a line: Fungicidal activity against Fusarium graminearum F200Y harboring mutation at codon 200 of beta2 tubulin assessed as mycelial growth inhibition after 3 days.
For test [6], the system named is Fusarium graminearum. The experiment in a line: Fungicidal activity against Fusarium graminearum 2021 assessed as mycelial growth inhibition after 3 days.
Test [7] relates to Fusarium graminearum. Kind of test: Fungicidal activity against Fusarium graminearum Y50C harboring mutation at codon 50 of beta2 tubulin assessed as mycelial growth inhibition after 3 days.
Test [8] has as its system Fusarium graminearum. Kind of test: Fungicidal activity against Fusarium graminearum DN83 harboring beta2 tubulin deletion mutation assessed as mycelial growth inhibition after 3 days.
In test [9] the test system is Fusarium graminearum. Kind of test: Fungicidal activity against Fusarium graminearum E198K harboring mutation at codon 198 of beta2 tubulin assessed as mycelial growth inhibition after 3 days.
Test [10] deals with Fusarium graminearum. The experiment in a line: Fungicidal activity against Fusarium graminearum NT7 harboring mutation at codon 200 of beta2 tubulin assessed as mycelial growth inhibition after 3 days.
In test [11] the test system is Fusarium graminearum. Kind of test: Fungicidal activity against Fusarium graminearum F167Y harboring mutation at codon 167 of beta2 tubulin assessed as mycelial growth inhibition after 3 days.

Structures are written as SMILES. ≈ marks a conversion by molar mass, not a printed value.

This note sets out measurements from ChEMBL document CHEMBL3045960 (Pest Manag Sci, 2011).

In general, EC50 refers to the midpoint of the concentration-response curve. As to `COC(=O)Nc1nc2ccccc2[nH]1`, the EC50 came out at 3.52 µg/mL (≈ 18.4 µM) in the test on Fusarium graminearum [1]; 3.59 µg/mL (≈ 18.8 µM) with Fusarium graminearum [2]; 3.33 µg/mL (≈ 17.4 µM) in the test with Fusarium graminearum [3]; 12.3 µg/mL (≈ 64.4 µM) with Fusarium graminearum [4]; 10.9 µg/mL (≈ 57.2 µM) in the test on Fusarium graminearum [5]; 0.47 µg/mL (≈ 2.46 µM) in the test with Fusarium graminearum [6]. In addition, the half-maximal effective concentration (EC50) in the test with Fusarium graminearum [7] turned out to be 3.24 µg/mL (≈ 16.9 µM); in the test with Fusarium graminearum [8] it was 0.1 µg/mL (≈ 0.523 µM); in the test with Fusarium graminearum [9], 3.52 µg/mL (≈ 18.4 µM); with Fusarium graminearum [10] it was 10.9 µg/mL (≈ 57.1 µM); in the test with Fusarium graminearum [11], 10.8 µg/mL (≈ 56.7 µM).
As to `CCCCNC(=O)n1c(NC(=O)OC)nc2ccccc21` [BENOMYL], the concentration giving a half-maximal response (EC50) in the test with Fusarium graminearum [1] is 3.19 µg/mL (≈ 11 µM); in the test with Fusarium graminearum [2] it was 5.81 µg/mL (≈ 20 µM); in the test on Fusarium graminearum [3], 3.93 µg/mL (≈ 13.5 µM); in the test on Fusarium graminearum [4] it was 17.7 µg/mL (≈ 60.9 µM); in the test on Fusarium graminearum [5], 6.05 µg/mL (≈ 20.8 µM); in the test with Fusarium graminearum [7] it was 3.02 µg/mL (≈ 10.4 µM). For the same molecule, the EC50 in the test with Fusarium graminearum [9] came out at 4.46 µg/mL (≈ 15.4 µM); in the test with Fusarium graminearum [10], 8.83 µg/mL (≈ 30.4 µM); in the test on Fusarium graminearum [11], 15 µg/mL (≈ 51.6 µM).
Consider `COC(=O)NC(=S)Nc1ccccc1NC(=S)NC(=O)OC` [THIOPHANATE METHYL], for which the 50% effective concentration (EC50) in the test on Fusarium graminearum [1] turned out to be 42.9 µg/mL (≈ 125 µM); with Fusarium graminearum [2] it was 38.2 µg/mL (≈ 111 µM); in the test with Fusarium graminearum [3] it was 41.3 µg/mL (≈ 121 µM); with Fusarium graminearum [9], 33.5 µg/mL (≈ 97.8 µM).
Regarding `c1ccc2[nH]c(-c3cscn3)nc2c1` [THIABENDAZOLE], the concentration for a half-maximal effect (EC50) was found to be 4.52 µg/mL (≈ 22.5 µM) in the test with Fusarium graminearum [1]; 3.86 µg/mL (≈ 19.2 µM) with Fusarium graminearum [2]; 4.52 µg/mL (≈ 22.5 µM) with Fusarium graminearum [3]; 10.8 µg/mL (≈ 53.4 µM) in the test on Fusarium graminearum [4]; 5.85 µg/mL (≈ 29.1 µM) in the test with Fusarium graminearum [5]; 3.74 µg/mL (≈ 18.6 µM) in the test on Fusarium graminearum [7]. Moreover, the EC50 came out at 3.56 µg/mL (≈ 17.7 µM) with Fusarium graminearum [9], 6.76 µg/mL (≈ 33.6 µM) in the test on Fusarium graminearum [10] and 14.6 µg/mL (≈ 72.7 µM) with Fusarium graminearum [11].
